Reference: PubChem BioAssay AID375 (SRMLSC, 2006)
This is a selection; strong and weak results do not stand in their true shares. The source made the active and inactive calls. How the calls were made is not given here.

Amino acid sequences for entries named in this document (tags omitted). A change or cut given only in a name is not applied to a line headed by its entry.
UniProt P9WIL5: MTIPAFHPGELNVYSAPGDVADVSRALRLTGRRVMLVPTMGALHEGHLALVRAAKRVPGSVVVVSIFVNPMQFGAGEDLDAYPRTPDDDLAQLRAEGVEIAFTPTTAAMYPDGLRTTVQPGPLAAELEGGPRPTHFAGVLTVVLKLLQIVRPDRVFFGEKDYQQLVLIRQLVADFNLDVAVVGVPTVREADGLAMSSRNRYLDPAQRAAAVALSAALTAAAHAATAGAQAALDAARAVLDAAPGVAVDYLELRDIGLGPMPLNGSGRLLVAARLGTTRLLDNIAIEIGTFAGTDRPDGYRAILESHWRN

The compounds below were run against Pantothenate synthetase (Mycobacterium tuberculosis (strain ATCC 25618 / H37Rv)) (UniProt P9WIL5) (assay: Recombinant Mtb pantothenate synthetase (PanC) inhibitors, coupled enzyme, confirmatory (AID 375;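 further: 0% = full reaction with vehicle and 100% = no enzyme background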)). Conditions: coupled enzyme assay, at 10 µM, stronger effect = higher value.

Compound | inhibition
O=P(Nc1nccs1)(c1ccccc1)c1ccccc1 | inactive: 2%
O=C(COc1ccccc1)OC1CN2CCC1CC2 (stereo not given) | inactive: 0%
COP1(=S)c2c(C)nn(CCC#N)c2N=C(c2ccc(F)cc2)N1C (stereo not given) | inactive: 0%
CCOP1(=S)c2c(C)nn(CCC#N)c2N=C(c2ccccc2F)N1C (stereo not given) | inactive: 0%
Cc1nn(-c2ccccc2)c2c1P(=O)(N1CCOCC1)N(C)C(c1ccccc1)=N2 (stereo not given) | inactive: 0%
